Earlier results on two substances are cited in paper PMC5954841.

The target of data set [1] is Caf1 pilus subunit (Yersinia pestis) (UniProt P26948).
In data set [2] the target is Caf1A usher (Yersinia pestis) (UniProt P26949).

In the case of Caf1M chaperone (from UniProt P26926), in data set [1], the Kd is 0.0625 µM.

Consider “Caf1M-Caf1 chaperone-subunit complex (from UniProt P26926)”, for which the Kd in data set [2] is 2.42 µM.

In general, Kd refers to the constant that tells how readily two partners part at equilibrium.
